## Fitness effects across NS2B and the NS3 protease domain of Zika virus

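Pools of virus carrying all single amino acid changes were selected for growth in Huh-7.5 cells. Sequencing of three replicate libraries (two for positions 207-308) was averaged into one effect per change.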

The scanned region of Zika virus MR766 is shown below (positions 1-308): NS2B is 2-131, NS3 begins at position 132.
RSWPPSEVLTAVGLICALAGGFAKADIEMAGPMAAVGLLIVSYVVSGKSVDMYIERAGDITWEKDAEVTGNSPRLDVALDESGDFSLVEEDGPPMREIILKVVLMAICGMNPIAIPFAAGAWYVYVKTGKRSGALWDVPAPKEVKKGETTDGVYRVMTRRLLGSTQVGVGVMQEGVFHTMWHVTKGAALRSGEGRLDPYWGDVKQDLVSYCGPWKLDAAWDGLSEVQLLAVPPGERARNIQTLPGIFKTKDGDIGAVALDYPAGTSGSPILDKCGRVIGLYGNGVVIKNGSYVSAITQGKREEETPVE

Values are log2 effects on growth: 0 is wild type, lower means poorer growth.
A change reads original residue, position, new residue.
The region was split into three libraries (1-103, 104-206, 207-308).

mutation	log2 growth effect
S2P	-7.37
S2Y	-6.60
S6N	0.41
T10H	-3.22
I15M	-0.43
A17S	0.03
G21H	-5.25
A23V	-0.33
A25F	-1.86
I27A	-2.27
P32*	-6.89
M33V	-0.53
A35M	-5.64
L38G	-6.99
V44I	-1.60
K48P	-5.85
M52*	-7.41
D59T	-3.84
T61A	-0.60
E63H	-3.77
K64Y	-0.81
L75E	-5.98
V77W	-6.33
D80R	-7.43
G83Q	-6.03
G92K	-4.47
M95W	0.16
E97P	-6.84
V103*	-7.07
I115Y	-5.86
F117Y	-5.99
A118Y	-5.46
A121G	-1.81
G129Q	-5.80
R131S	-5.01
S132V	-6.57
E143T	-0.39
V144S	-1.13
G152E	-5.77
V153A	-5.12
R159G	-6.06
S164A	-0.61
Q166I	-5.00
G168H	-4.74
G170N	-5.36
T179A	-6.54
T179Y	-5.46
M180*	-7.14
W181*	-5.96
W181I	-4.56
H182W	-4.75
T184I	-5.92
G186Q	-4.84
L189Y	-3.58
R195H	-5.57
D197N	-0.64
D202G	-6.69
S209A	-1.09
W214I	-7.27
W214N	-7.29
W214P	-8.04
A219M	1.64
V226M	-5.39
Q227K	-7.35
V231A	-3.39
P233R	-6.72
G245R	-6.76
I246E	-4.33
K250N	-6.72
D260A	-5.83
D260L	-5.93
G264Q	-5.56
G275H	-1.21
R276Y	-5.43
V277E	-5.00
V277P	-5.74
Y281G	-5.61
N283R	-6.25
G284D	-4.35
V286W	-5.08
G290A	-6.47
A295G	-6.51
I296P	-5.46
I296S	-6.03
T297M	-4.50
Q298R	-5.48
G299N	-4.57
E302F	0.31
E304M	0.33

The first 10 entries again:

mutation,log2 growth effect
S2P,-7.37
S2Y,-6.60
S6N,0.41
T10H,-3.22
I15M,-0.43
A17S,0.03
G21H,-5.25
A23V,-0.33
A25F,-1.86
I27A,-2.27

The authors count -1 or higher as tolerated. Position 1 is the last residue of NS2A.
Six mutants with high scores were retested singly and none clearly outgrew wild type, so positive values are not proof of better growth.
Stop codons (*) centre on -7 and mark the level of dead virus.

From the data files of Ni et al. 2025, doi:10.1038/s41467-025-63602-z.